A mixed list of measured activities; the numbers were collected in NIAID ChemDB.

All rows: host cell toxicity; cells: HepG2; read-out: CC50

An empty or dashed field is not shown.

SMILES	read by	result
COc1cccc(CNCCCNc2ccnc3cc(-c4ccccc4)ccc23)c1O	fluorescence	3.21 µM
CC(C)Nc1nc2c(c(=O)n1-c1cc3n(n1)CCNC3=O)C[C@@H](C)N(C(=O)c1ccc(Cl)c(C(F)(F)F)c1)C2	luminescence	>50 µM
CCOC(=O)CCCCCOc1cccc(CN(C(=O)c2ccc(-c3cccc(F)c3)cc2)C(C)C)c1	-	>20 µM
CNC(=O)c1cc(-n2c(NC(C)C)nc3c(c2=O)C[C@@H](C)N(C(=O)c2ccc(Cl)c(C(F)(F)F)c2Cl)C3)nn1C	luminescence	>50 µM
CCCN(Cc1ccc(OCC(=O)O)cc1)C(=O)c1ccc(-c2ccc3c(c2)OCO3)cc1	-	>20 µM
CCNC(=O)C1(F)CCC(n2c(NC(C)C)nc3c(c2=O)C[C@@H](C)N(C(=O)c2ccc(Cl)c(C(F)(F)F)c2)C3)CC1	luminescence	>50 µM
Cc1cc(NC(=O)c2c(C)c(C(=O)C(=O)NC3(C)CC(OP(=O)([O-])[O-])C3)n(C)c2C)ccc1F.[Na+].[Na+]	MTT	>30 µM
CNC(=O)CC1CC(n2c(NC(C)C)nc3c(c2=O)C[C@@H](C)N(C(=O)c2ccc(Cl)c(C(F)(F)F)c2)C3)C1	luminescence	>50 µM
CC(=O)N1CC[C@@H](NC(=O)C(=O)c2c(C)c(C(=O)Nc3ccc(F)c(C)c3)c(C)n2C)[C@H](O)C1	MTT	>30 µM
CC(=O)NC1CCC(n2c(NC(C)C)nc3c(c2=O)C[C@@H](C)N(C(=O)c2ccc(Cl)c(C(F)(F)F)c2)C3)CC1	luminescence	43.7 µM
CCOC(=O)COc1ccc(CN(C(=O)c2ccc(-c3ccc4c(c3)OCO4)cc2)C(C)C)cc1	-	>20 µM
CNC(=O)c1ccc(-n2c([C@H](O)C(C)C)nc3c(c2=O)C[C@@H](C)N(C(=O)c2ccc(Br)c(C(F)(F)F)c2)C3)cc1	luminescence	>50 µM
COc1ccc(F)cc1CNCCCNc1ccnc2cc(Cc3ccc(F)cc3)ccc12	fluorescence	3.53 µM
CC(C)N(Cc1cccc(OCCCCCC(=O)OC(=O)O)c1)C(=O)c1ccc(-c2cccc(C#N)c2)cc1	-	>20 µM
COc1cccc(CNCCCNc2ccnc3cc(Oc4ccc(F)cc4)ccc23)c1O	fluorescence	11 µM
Cc1cc(NC(=O)c2c(C)c(C(=O)C(=O)NC3(C)CC(OP(=O)(O)O)C3)n(C)c2C)ccc1F	MTT	>30 µM
CCOC(=O)CC(=O)NCCc1ccc(OC)c(OC)c1	-	>20 µM
Cc1cc(NC(=O)c2c(C)c(C(=O)C(=O)NC3(C)CCC(O)CC3)n(C)c2CC2CC2)ccc1F	MTT	>30 µM
CC(C)N(Cc1ccccc1)C(=O)c1ccc(-c2ccc3c(c2)OCO3)cc1	-	<13.5 µM
Cc1c(C(=O)Nc2ccc(F)c(C#N)c2)c(C)n(C)c1C(=O)C(=O)Nc1ccc(B(O)O)cc1	MTT	>30 µM
c1coc(CNCCCNc2ccnc3cc(CC4CCCCC4)ccc23)c1	fluorescence	1.7 µM
CCOC(=O)CCCCCOc1cccc(CN(C(=O)c2ccc(-c3cccc(Br)c3)cc2)C(C)C)c1	-	>20 µM
Cc1cc(NC(=O)c2c(C)c(C(=O)C(=O)NC3(C)CCC(O)CC3)n(C)c2-c2nccs2)ccc1F	MTT	>30 µM
COc1cccc(CNCCCNc2ccnc3cc(-c4cccc5ccccc45)ccc23)c1O	fluorescence	2.52 µM

The first 3 rows once more:

SMILES	read by	result
COc1cccc(CNCCCNc2ccnc3cc(-c4ccccc4)ccc23)c1O	fluorescence	3.21 µM
CC(C)Nc1nc2c(c(=O)n1-c1cc3n(n1)CCNC3=O)C[C@@H](C)N(C(=O)c1ccc(Cl)c(C(F)(F)F)c1)C2	luminescence	>50 µM
CCOC(=O)CCCCCOc1cccc(CN(C(=O)c2ccc(-c3cccc(F)c3)cc2)C(C)C)c1	-	>20 µM

CCn is the concentration with n% toxicity to the cells. Neighbouring rows are from separate reports.